Pooled drug test results. Numbers come from NIAID ChemDB, via PubChem.

Shared fields: host cell toxicity; cell line: KB; measure: CC50

Lines come from different laboratories, so protocols vary.

compound,method,result
O=c1[nH]c(=O)n([C@H]2C[C@H](O)[C@@H](CO)O2)c[c]1[Hg+].O=c1cc[nH]c(=S)[nH]1,trypan blue,>115 µg/mL
CC1(C)[C@@H](Br)CC[C@]2(C)O[C@H]3COC(=O)C3=C[C@@H](O)[C@@H]12,-,7.2 µg/mL
C[C@H]1[C@H](O)C(=O)CC2[C@]3(C)CC[C@@]4(C)C5CC(C)(C)CC[C@]5(C)CC[C@]4(C)C3CC[C@@]21C,sulforhodamine / absorbance,>50 µM
CC(C)Nc1nc2nc3cc(Cl)c(Cl)cc3nc2n1C1OC(CO)C(O)C1O,-,70 µM
COc1cc(/C=C/C(=O)Oc2c(-c3ccc(Cl)cc3)oc3ccccc3c2=O)ccc1OC(C)=O,-,19 µM
C/C(=C\C=C\[C@@H](C)C1CC[C@@]2(C)[C@@H]3CC[C@H]4C(C)(C)C(=O)CC[C@]4(C)[C@@]3(O)CC[C@]12C)C(=O)O,-,28.83 µM
COc1c2c(cc3c1-c1cc4c(CO)c5c(cc4c[n+]1CC3)OCO5)OCO2,sulforhodamine,>3.79 µg/mL
Nc1ncnc2c1ncn2[C@@H]1C[C@@H](O)[C@H](CO)O1,-,>100 µM
O=C(CO)CCC(=O)OCCc1ccc2c(c1)OCO2,MTT,3.85 µM
OCC1OC(n2c(SCc3ccccc3)nc3nc4cc(Cl)c(Cl)cc4nc32)C(O)C1O,-,20 µM
CCO/N=C/c1ccc(OCCC2CCN(c3ccc(C)nn3)CC2)cc1,-,4.706 µM
CC(C)CNC(=O)[C@@H](N)Cc1ccc(OP2(=O)CO[C@@H](Cn3cnc4c(N)ncnc43)CO2)cc1,absorbance,>100 µM
O=P(O)(O)C(O)(Cc1ccccc1)P(=O)(O)O,-,931 µM
Nc1nc(NC2CC2)c2ncn([C@H]3C=C[C@@H](CO)O3)c2n1,-,>500 µM
COC(=O)/C(C)=C/C=C/[C@@H](C)[C@H]1CC[C@@]2(C)C3CC[C@H]4C(C)(C)C(=O)CC[C@]4(C)[C@@]3(O)CC[C@]12C,-,>40 µM
O=C1c2c(O)cc(O)cc2O[C@H](c2ccc(O)cc2)[C@H]1c1c(O)cc(O)c2c(=O)cc(-c3ccc(O)c(O)c3)oc12,sulforhodamine / absorbance,>50 µM
[C-]#[N+][C@@]1(C)CC[C@H]2[C@H]3C(=C(C)CC[C@@H]31)[C@H](C=C(C)C)C[C@@H]2C,-,15.2 µg/mL
OC[C@H]1O[C@@H](n2cnc(Br)c2Br)[C@H](O)[C@@H]1O,-,>100 µM
COc1cc(C(=O)Oc2c(-c3ccc(Cl)c(Cl)c3)oc3ccccc3c2=O)ccc1OC(C)=O,-,>100 µM
CC1=C2CC[C@]3(C)O[C@H]3CC/C(C)=C/CC/C(C)=C/[C@H]2OC1,-,>20 µg/mL
C/C(=C\C=C\C(C)[C@H]1CC[C@@]2(C)[C@@H]3CC[C@H]4C(C)(C)C(=O)CC[C@]4(C)C3=CC[C@]12C)C(=O)O,sulforhodamine / absorbance,>50 µM
OC[C@H]1O[C@@H](n2cnc3cc(Cl)c(Cl)cc32)[C@H](O)[C@@H]1O,-,36 µM
COC1c2c(ccc3c2OCO3)-c2ccc3cc4c(cc3c2N1C)OCO4,sulforhodamine,>3.63 µg/mL
OC[C@H]1O[C@@H](n2cnc(Cl)c2Cl)[C@H](O)[C@@H]1O,-,>100 µM
C[C@](Cl)([C@@H](Br)/C=C/[C@](C)(Cl)CBr)[C@@H](Br)CCl,-,12.4 µg/mL
C/C=C/c1ccc2c(c1)[C@H](C)[C@@H](c1ccc(O)cc1)O2,sulforhodamine / absorbance,43 µM
CN1N=C(N)c2cn([C@@H]3O[C@H](COP(=O)(O)O)[C@@H](O)[C@H]3O)c3ncnc1c23,-,10 µM
Cc1c2ccncc2c(C)c2c1[nH]c1ccccc12,-,0.3 µg/mL
Nc1nc(N)c2ncn([C@H]3CO[C@@H](CO)O3)c2n1,-,>500 µM
CC(C)Nc1nc2nc3cc(Cl)c(Cl)cc3nc2n1C1OC(CO)C(O)C1O,-,70 µM
COc1cc(C(=O)Oc2c(-c3ccc(Cl)cc3)oc3ccccc3c2=O)ccc1OC(C)=O,-,10.4 µM
COc1cc(/C=C/C(=O)O[C@H]2[C@H](O)[C@@H](OC3OCC(O)(CO)C3O)[C@H](OCCc3ccc(O)cc3)O[C@@H]2CO)ccc1O,MTT,7.69 µM
CC(C)=CC[C@H]1C[C@@]2(C[C@H]3CCC(C)(C)C=C3C)C(=O)[C@](C(=O)c3ccccc3)(C(=O)C3=C2OC(C)(C)C=C3)C1(C)C,sulforhodamine / absorbance,>50 µM
OCCOCn1c(Br)nc(Br)c1Br,-,>100 µM
CC(=O)Oc1c(-c2ccc(Cl)cc2)oc2ccccc2c1=O,-,6.5 µM
Nc1ccn([C@@H]2C[C@@H](O)[C@H](CO)O2)c(=O)n1,-,>100 µM
OC[C@H]1O[C@@H](n2c(SCc3ccccc3)nc3cc4cc(Cl)c(Cl)cc4cc32)[C@H](O)[C@@H]1O,-,>100 µM
CC(=O)OC(C1CC(C)C(=O)O1)C(C)C1C2C3(O)OC4(CCC12C)C(=CCC1C(C)(C)OC2CC(=O)OC21C4O)C3=O,MTT,4.83 µg/mL
CC(=O)O[C@@H](/C=C(\C)C(=O)O)C[C@@H](C)[C@H]1CC[C@@]2(C)C3CC[C@H]4C(C)(C)C(=O)CC[C@]4(C)C3=CC[C@]12C,-,25.26 µM
[C-]#[N+][C@@H]1[C@H](C(C)C)CC[C@@H](C)C12C=C(C)CC2,-,>20 µg/mL
COc1cc(C(=O)Oc2c(-c3ccc(Cl)c(Cl)c3)oc3ccccc3c2=O)cc(OC)c1O,-,7.1 µM
COc1cc(CCOC(=O)CCC(=O)CO)cc(O)c1OC,MTT,2.82 µM
O=C(Oc1c(-c2ccc(Cl)cc2)oc2ccccc2c1=O)c1cc(OCc2ccccc2)c(OCc2ccccc2)c(OCc2ccccc2)c1,-,>100 µM
O=c1[nH]c(=O)n([C@H]2C[C@H](O)[C@@H](CO)O2)c[c]1[Hg+].OCC(O)C[S-],trypan blue,53.8 µg/mL
CC(C)=CC[C@H]1C[C@]2(C[C@H]3CCC(C)(C)C=C3C)C(=O)C3=C(OC(C)(C)CC3)[C@@](C(=O)c3ccccc3)(C2=O)C1(C)C,sulforhodamine / absorbance,>50 µM
C[C@]1(/C=C/Cl)C[C@](Cl)(CBr)[C@@H](Br)C[C@H]1Cl,-,13.3 µg/mL
O=C(/C=C/c1ccc(O)c(O)c1)c1ccc(O)cc1,-,3.9 µM
OC[C@H]1O[C@@H](n2c(Br)nc(Br)c2Br)[C@H](O)[C@H]1O,-,>100 µM
c1cc2c(cnc3c4cc5c(cc4ccc23)OCO5)c2c1OCO2,sulforhodamine,>0.32 µg/mL
OCC1OC(n2cnc3nc4cc(Cl)c(Cl)cc4nc32)C(O)C1O,-,>100 µM
CC(C)(O)c1ccc2c(c1)CC[C@H]1[C@](C)(C(=O)O)CCC[C@]21C,absorbance,29.78 µg/mL
OCCc1ccc(O[C@@H]2O[C@H](CO)[C@@H](O)[C@H](O)[C@H]2O)c(O)c1,MTT,15.05 µM
OC[C@H]1O[C@@H](n2cnc3cc(Cl)c(Cl)cc32)[C@H](O)[C@@H]1O,-,36 µM
OC[C@H]1O[C@@H](n2cnc3cc(Cl)c(Cl)cc32)[C@H](O)[C@@H]1O,-,36 µM
NC(CS)C(=O)O.O=c1[nH]c(=O)n([C@H]2C[C@H](O)[C@@H](CO)O2)c[c]1[Hg+],trypan blue,>114 µg/mL
OC[C@H]1O[C@@H](n2c(Br)nc(Cl)c2Cl)[C@H](O)[C@H]1O,-,>100 µM

Again, the opening 5 rows:

{"compound": "O=c1[nH]c(=O)n([C@H]2C[C@H](O)[C@@H](CO)O2)c[c]1[Hg+].O=c1cc[nH]c(=S)[nH]1", "method": "trypan blue", "result": ">115 µg/mL"}
{"compound": "CC1(C)[C@@H](Br)CC[C@]2(C)O[C@H]3COC(=O)C3=C[C@@H](O)[C@@H]12", "result": "7.2 µg/mL"}
{"compound": "C[C@H]1[C@H](O)C(=O)CC2[C@]3(C)CC[C@@]4(C)C5CC(C)(C)CC[C@]5(C)CC[C@]4(C)C3CC[C@@]21C", "method": "sulforhodamine / absorbance", "result": ">50 µM"}
{"compound": "CC(C)Nc1nc2nc3cc(Cl)c(Cl)cc3nc2n1C1OC(CO)C(O)C1O", "result": "70 µM"}
{"compound": "COc1cc(/C=C/C(=O)Oc2c(-c3ccc(Cl)cc3)oc3ccccc3c2=O)ccc1OC(C)=O", "result": "19 µM"}

An empty or dashed field is not shown. CCn: concentration that lowers growth or viability of the cells by n%.